Test: xn = mol fraction of the nth substance listed

O=S(=O)(F)[N-]S(=O)(=O)F.[Na+] + COCCOC
100 kPa
Settings | electrical conductivity, 301.15 K [S/m] | viscosity, 298.1 K [mPa·s] | viscosity, 301.1 K [mPa·s]
x1 = 0.02439 | 0.47 | – | 0.6
x1 = 0.03226 | 0.65 | – | 0.6
x1 = 0.04762 | 1 | – | 0.7
x1 = 0.0625 | 1.34 | – | 0.8
x1 = 0.09091 | 1.84 | – | 1
x1 = 0.1111 | 1.94 | – | 1.4
x1 = 0.1429 | 2.14 | – | 2
x1 = 0.1667 | 2.11 | – | 2.7
x1 = 0.2 | 1.71 | – | 4.5
x1 = 0.25 | 1.32 | 11 | 10
x1 = 0.3333 | 0.66 | 45 | 39
x1 = 0.5 | 0.07 | 750 | 561

CCCC[N+]1(C)CCCC1.O=C1O[B-]2(OC1=O)OC(=O)C(=O)O2 + CCCC[N+]1(C)CCCC1.O=S(=O)(F)[N-]S(=O)(=O)F
101.3 kPa
Settings | viscosity [mPa·s]
288.15 K, x2 = 0.6 | 880
303.15 K, x2 = 0.2 | 850
308.15 K, x2 = 0 | 1055
313.15 K, x2 = 0.6 | 154
318.15 K, x2 = 0 | 448
353.15 K, x2 = 0.2 | 43.2

O=S(=O)(F)[N-]S(=O)(=O)F.[Na+] + O=C1CCCO1
303.15 K, 100 kPa
Settings | electrical conductivity [S/m] | viscosity [mPa·s]
x1 = 0.04762 | 0.655 | 2.58
x1 = 0.09091 | 1.14 | 4.06
x1 = 0.1 | 1.5 | 4.48
x1 = 0.1111 | 1.51 | 5.06
x1 = 0.125 | 1.53 | 5.96
x1 = 0.1429 | 1.56 | 7.32
x1 = 0.1667 | 1.34 | 9.84
x1 = 0.2 | 1.03 | 14.6
x1 = 0.25 | 0.714 | 28.6
x1 = 0.3333 | 0.325 | 90.7
x1 = 0.5 | 0.0556 | 1164

O=S(=O)(F)[N-]S(=O)(=O)F.[Na+] + COCCOCCOCCOC
Settings | viscosity [mPa·s]
298.15 K, 100 kPa, x1 = 0.5 | 496

O=S(=O)(F)[N-]S(=O)(=O)F.[Na+] + COCCOCCOC
100 kPa
Settings | electrical conductivity, 301.15 K [S/m] | viscosity, 298.1 K [mPa·s] | viscosity, 301.1 K [mPa·s]
x1 = 0.02439 | 0.21 | – | 1.2
x1 = 0.03226 | 0.3 | – | 1.3
x1 = 0.04762 | 0.47 | – | 1.4
x1 = 0.0625 | 0.67 | – | 1.6
x1 = 0.09091 | 1 | – | 2
x1 = 0.1111 | 1.04 | – | 2.3
x1 = 0.1429 | 1.11 | – | 2.9
x1 = 0.1667 | 1.19 | – | 3.7
x1 = 0.2 | 1.2 | – | 5.5
x1 = 0.25 | 0.97 | – | 9.4
x1 = 0.3333 | 0.67 | 27 | 23
x1 = 0.5 | 0.16 | 311 | 241

Source: the CheMixHub ionic liquid set
